Laboratory results reported in patent publication US4690926A, “Boxazomycin A and B, new antibiotics containing benzoxazole nucleus” (Bristol-Myers Company, priority 1986, dated 1987).

Test system: Gram-positive aerobic and Gram-positive/Gram-negative anaerobic organisms
Assay: In vitro antibacterial spectrum (in words)
Format: cell-based
Details: for effect of acidic medium on activity: acidic media; for antibacterial spectrum: in vitro

SMILES | effect of acidic medium on activity | antibacterial spectrum
Cc1cc(O)c(C(N)=O)c2nc(-c3nc(CO)ncc3O)oc12 [Boxazomycin A] | enhanced activity in acidic media, especially against anaerobic bacteria | inhibiting Gram-positive aerobic and Gram-positive/Gram-negative anaerobic organisms
Cc1ncc(O)c(-c2nc3c(C(N)=O)c(O)cc(C)c3o2)n1 [Boxazomycin B] | enhanced activity in acidic media, especially against anaerobic bacteria | inhibiting Gram-positive aerobic and Gram-positive/Gram-negative anaerobic organisms
